From paper PMC11796124, “Inhibition of STING-mediated type I IFN signaling by African swine fever virus DP71L” (2025)

Biological target: DP71L-Flag (Flag-tagged ASFV DP71L), expressed in HEK293T cells
Test: Strep pull-down, immunoblot band densitometry
Conditions: HEK293T cells co-transfected with DP71L-Flag and Strep-tagged STING; parent: est. 0.52; read off a plot

Substance | response (Relative IntDEN to β-actin)
STING-Strep (Strep-tagged STING) (from UniProt Q86WV6) P371Q | 0.18
STING-Strep (Strep-tagged STING) (from UniProt Q86WV6) S366A | 0.47
